In article PMC9321043, “Synthesis, Structure–Activity Relationships, and Parasitological Profiling of Brussonol Derivatives as New Plasmodium falciparum Inhibitors” (Pharmaceuticals, 2022):

system: HepG2 cells; assay: Cytotoxic test on immortalized cells, MTT; type: cell-based, human; details: SI = IC50^HepG2/IC50^Pf
Experimental: The cytotoxic effects of brussonol and derivatives were evaluated against the human hepatocellular carcinoma cell line (HepG2). The cells were cultivated in an RPMI medium supplemented with 10% (v/v) fetal bovine serum and 25 µg/mL gentamicin. Conditions for the cultivation of these cells were 37 °C and 5% CO2, and every 2 days the supplemented medium was changed.
For experimental procedures, the cells were trypsinized and transferred to a 96-well plate at 30,000 cells per well (180 µL). The plate was incubated at 37 °C and 5% CO2 to allow cell adhesion. Next, 20 µL of serial dilutions of the compounds tested were added to the plate, with a range of concentrations tested from 400–6.25 µM. Cells without any compounds were used as a positive control for growing and the wells containing only medium were used as negative controls. The plate was incubated for 72 h at 37 °C and 5% CO2. After incubation, a microscope was used to determine the highest compound concentration to be used in the experiments (highest concentration without precipitation). A colorimetric assay was used to evaluate cytotoxicity. This assay is based on the metabolic cell activity in the presence of 3-(4,5-dimethylthiazol-2-yl)-2,5-diphenyltetrazolium bromide (MTT). Shortly after incubation, 20 µL of a solution of MTT at 5 mg/mL (solubilized in phosphate buffer) is added to each well. The plate is incubated for 3 to 4 h at 37 °C to allow MTT cleavage in living cells. Then, the supernatant is removed, and 100 µL of dimethylsulfoxide (DMSO) is added to solubilize the purple formazan crystals. The absorbance, which is proportional to the number of viable cells, was determined using a SpectraMAX Plus 384 plate reader (Molecular Devices Corp., Sunnyvale, CA) (λ = 570 nm). All compounds described here were purchased from Sigma-Aldrich (verificar local).
After the IC50 against the parasite and the human cell line is determined, it is possible to calculate the SI. It is calculated as the formula below:SI = IC50^HepG2/IC50^Pf.
For our reference, compounds with SI values higher than 10 are considered well tolerated by the cellular model used, and they are considered for further evaluation.

Row | SMILES | SI
1 | COc1c2c(c(OC)c(C(C)C)c1OC)[C@@H]1C[C@H]3C(C)(C)CCC[C@@]3(C2)O1 (racemic) [Compound 8] | > 30 and 34
2 | COc1c2c(c(-c3ccccc3)c(C(C)C)c1OC)[C@@H]1C[C@H]3C(C)(C)CCC[C@@]3(C2)O1 (racemic) [Compound 11] | >2
3 | COc1c2c(c(-c3ccccc3)c(C(C)C)c1OC)[C@@H]1C[C@H]3CCCC[C@@]3(C2)O1 (racemic) [Compound 15] | >8
4 | COc1c(C(C)C)cc2c(c1OC)CC13CCCC(C)(C)C1CC2O3 (centres unmarked) [Compound 7] | >37
5 | COc1c2c(c(Br)c(C(C)C)c1OC)C1CC3CCCCC3(C2)O1 (centres unmarked) [Compound 14] | >4

Where “and” joins values, the source holds several entries; their conditions need not be identical. Equal values may be shown once.
